Measured values from several laboratories, pooled; numbers as filed in NIAID ChemDB.

Shared fields: host cell toxicity; endpoint: CC50

CCn is the concentration with n% toxicity to the cells. Two numbers with a dash give a range or band. Lines come from different laboratories, so protocols vary.

COc1cccc(NC(=S)N=Nc2c(O)[nH]c3ccccc23)c1 ; cells: hRD ; result: >25 µM
COC(=O)N[C@H](C(=O)N[C@H](CCC[C@@H](CO)N(CCC(C)C)S(=O)(=O)c1ccc(N)cc1)C1CC1)C(c1ccc(F)cc1)c1ccc(F)cc1 ; method: microscopy ; cells: T lymphoid cells ; result: >10 µM
CCOC(=O)CCCCCOc1cccc(CN(C(=O)c2ccc(-c3cccc(F)c3)cc2)C(C)C)c1 ; cells: BJ ; result: >20 µM
O=c1[nH]c(=O)n([C@H]2O[C@@H](CO)[C@H](O)[C@H]2F)cc1I ; cells: 2.2.15 ; result: >200 µM
CS(=O)(=O)Nc1cccc(-c2cc(=O)n(O)c3ncccc23)c1 ; cells: HeLa ; result: <100 µM
CC(C)CCN([C@H](CO)CCC[C@@H](NC(=O)[C@@H](N)C(c1ccc(F)cc1)c1ccc(F)cc1)C1CC1)S(=O)(=O)c1ccc([C@@H](C)O)cc1 ; method: microscopy ; cells: T lymphoid cells ; result: >10 µM
CCCNc1ccccc1OCCCCC(=O)OCC ; cells: HEK 293 ; result: >20 µM
COc1ccc2[nH]c(O)c(N=NC(=S)Nc3ccccc3)c2c1 ; cells: hRD ; result: >25 µM
Cn1c(=O)cc(Sc2ccc(I)cc2)c2ccccc21 ; cells: Huh-Luc-Neo ; result: >100 µM
N#Cc1c(N)c2c3c([nH]c2[nH]c1=O)SC(c1ccncc1)C1=C3/C(=C/c2ccncc2)CCC1 ; method: MTT ; cells: CNE-2 ; result: 15.3 µM
O=c1cc(N[C@H](CN2CCCCC2)c2ccccc2)c2cccnc2n1O ; cells: HeLa ; result: <100 µM
CCCCCCCCCCCCCCCCOC1O[C@@H](CO)[C@H](O)[C@H](O)[C@@H]1O ; cells: TZM-b1 ; result: 43.51 µM
COC(=O)[C@H](C)NP(=O)(OCC1C/C1=C/n1cnc2c(N)ncnc21)Oc1ccccc1 ; cells: BSC-1 ; result: 0.5 µM
O=c1[nH]c(=S)[nH]c2c3c([nH]c12)SC(c1ccncc1)C1=C3/C(=C/c2ccncc2)CCC1 ; method: MTT ; cells: MGC-803 ; result: 14.5 µM
O=C1C=CC(=O)C1=Cc1ccco1 ; method: XTT ; cells: HeLa S3 ; result: 5.4 µM
CCCN([C@H](CO)CCC[C@H](C)NC(=O)[C@@H](NC(=O)OC)C(c1ccccc1)c1ccccc1)S(=O)(=O)c1ccc(CO)cc1 ; method: microscopy ; cells: T lymphoid cells ; result: >10 µM
Cc1ccc2c(c1)c(Sc1ccc(Br)cc1)cc(=O)n2C ; cells: Huh-Luc-Neo ; result: 10–100 µM
O=C(c1c[nH]c2ccccc12)[C@H](O)CO ; method: MTT ; cells: HL-60 ; result: >40 µg/mL
CCCN([C@H](CO)CCC[C@H](CC)NC(=O)[C@@H](NC(=O)OC)C(c1ccccc1)c1ccccc1)S(=O)(=O)c1ccc(CO)cc1 ; method: microscopy ; cells: T lymphoid cells ; result: >10 µM
NCc1cccc(-c2cnc3c(c2)c(O)c(-c2ccccc2)c(=O)n3O)c1 ; cells: HeLa ; result: <100 µM
CCOC(=O)CCCCCOc1cccc(CN(C(=O)c2ccc(-c3cccc(OC(F)(F)F)c3)cc2)C(C)C)c1 ; cells: RAJI ; result: >20 µM
Nc1nccc(OC[C@@H]2O[C@H](CO)[C@@H](O)[C@H]2O)n1 ; cells: CAKI-1 ; result: 202 µM
Oc1c(N=NC(=S)Nc2ccccc2)c2ccccc2n1Cc1ccccc1 ; cells: hRD ; result: >25 µM
O=C1C=CC(=O)C1=Cc1cccc(Br)c1 ; method: XTT ; cells: HeLa S3 ; result: >10 µM
Oc1[nH]c2ccc(Br)cc2c1N=NC(=S)Nc1ccccc1 ; cells: hRD ; result: >25 µM
Nc1ncnc2c([C@@H]3O[C@H](CSCCC(N)C(=O)O)[C@@H](O)[C@H]3O)[nH]nc12 ; cells: PRK/E6SM ; result: 400 µg/mL
Nc1nc(OC[C@H]2CC[C@@H](CO)O2)c2[nH]cnc2n1 ; cells: CAKI-1 ; result: 183 µM
Cc1ccc(/C=c2\c(=O)sc3nc4c(c(=S)n23)C2=C(CCC/C2=C\c2ccncc2)C(c2ccncc2)S4)cc1 ; method: MTT ; cells: MGC-803 ; result: 38.4 µM
Nc1cc(OC[C@H]2CC[C@@H](CO)O2)nc(N)n1 ; cells: PC-3 ; result: >250 µM
Nc1ccn([C@H]2O[C@@H](CO)[C@H](O)[C@H]2F)c(=O)n1 ; cells: 2.2.15 ; result: >200 µM
CCCCCCCCCCCCCCCC(=O)OC[C@H]1O[C@H](O[C@@H]2O[C@H](CO)[C@H](O)[C@H](O)[C@H]2O)[C@@H](O)[C@@H](O)[C@@H]1O ; cells: TZM-b1 ; result: >100 µM
C/C(=N\NC(=O)c1ccc([N+](=O)[O-])cc1)c1cccc(/C(C)=N/NC(=O)c2ccc([N+](=O)[O-])cc2)n1 ; method: MTT ; cells: HCT116 ; result: >100 µM
Cn1c(=O)cc(Sc2ccc(F)cc2)c2ccccc21 ; cells: Huh-Luc-Neo ; result: >100 µM
CCN([C@H](CO)CCC[C@@H](NC(=O)[C@@H](NC(=O)OC)C(c1ccccc1)c1ccccc1)C1CC1)S(=O)(=O)c1ccc(CO)cc1 ; method: microscopy ; cells: T lymphoid cells ; result: >10 µM
Nc1ncnc2c1ncn2[C@@H]1O[C@H](CCl)C[C@H]1O ; cells: PRK/E6SM ; result: 400 µg/mL
Nc1nc(OC[C@H]2CC[C@@H](COCc3ccccc3)O2)cc(OC[C@@H]2CC[C@H](COCc3ccccc3)O2)n1 ; cells: CAKI-1 ; result: 40 µM
COc1ccc2c(c1)c(Sc1ccc(C)cc1)cc(=O)n2C ; cells: Huh-Luc-Neo ; result: >100 µM
O=C(NCC(F)(F)F)c1c(O)c2cccnc2n(O)c1=O ; cells: HeLa ; result: <100 µM
Oc1[nH]c2ccc(F)cc2c1N=NC(=S)Nc1ccccc1 ; cells: hRD ; result: >25 µM
Nc1ncnc2c1CCN2[C@@H]1O[C@H](CSCCC(N)C(=O)O)C[C@H]1O ; cells: PRK/E6SM ; result: 200 µg/mL
CCOC1N=C2C3=C(N=C(C)N2N1c1ccccc1)SC(c1ccncc1)C1=C3/C(=C/c2ccncc2)CCC1 ; method: MTT ; cells: KB ; result: 12.2 µM
CC(=O)NC(CCSC[C@H]1O[C@@H](n2ccc3c(N)ncnc32)[C@H](O)[C@@H]1O)C(=O)O ; cells: PRK/E6SM ; result: 400 µg/mL
Nc1c(C(=O)c2ccccc2)[nH]c2c1C1=C(CCC/C1=C\c1ccncc1)C(c1ccncc1)S2 ; method: MTT ; cells: MCF-7 ; result: >50 µM
O=C1C=CC(=O)C1=Cc1cccs1 ; method: XTT ; cells: HeLa S3 ; result: >10 µM
CCOC1N=C2C3=C(N=CN2N1c1ccccc1)SC(c1ccncc1)C1=C3/C(=C/c2ccncc2)CCC1 ; method: MTT ; cells: MGC-803 ; result: 13.2 µM
O=C1C=CC(=O)C1=Cc1ccc(Cl)cc1 ; method: XTT ; cells: HeLa S3 ; result: >10 µM
CC(C)N(Cc1cccc(OCCCCCC(=O)OC(=O)O)c1)C(=O)c1ccc(-c2cccc([N+](=O)[O-])c2)cc1 ; cells: HEK 293 ; result: >20 µM
CCCNC(=S)N=Nc1c(O)[nH]c2ccccc12 ; cells: hRD ; result: >25 µM
COC(=O)N[C@H](C(=O)N[C@H](CCC[C@@H](CO)N(CCC(C)C)S(=O)(=O)c1ccc(Cl)cc1)C1CC1)C(c1ccccc1)c1ccccc1 ; method: microscopy ; cells: T lymphoid cells ; result: >10 µM
Nc1ncnc2c([C@@H]3O[C@H](CCl)[C@@H](O)[C@H]3O)[nH]nc12 ; cells: PRK/E6SM ; result: 400 µg/mL
O=C1C=CC(=O)C1=C/C=C/c1ccccc1 ; method: XTT ; cells: HeLa S3 ; result: >10 µM
O=c1[nH]c(=O)n([C@H]2O[C@@H](CO)[C@H](O)[C@H]2F)cc1/C=C/Br ; cells: 2.2.15 ; result: >200 µM
COc1cc(OC[C@H]2CC[C@@H](CO)O2)nc(N)n1 ; cells: CAKI-1 ; result: 240 µM
O=C1C=CC(=O)C1=Cc1ccc(F)cc1 ; method: XTT ; cells: HeLa S3 ; result: >10 µM
Oc1[nH]c2ccccc2c1N=NC(=S)N1CCCC1 ; cells: hRD ; result: >25 µM
N=c1c2c(ncn1Nc1ccccc1)SC(c1ccncc1)C1=C2/C(=C/c2ccncc2)CCC1 ; method: MTT ; cells: KB ; result: 11.7 µM
CCOC(=O)CCCCCOc1cccc(C=O)c1 ; cells: BJ ; result: >20 µM
CCCCCCCCCCCCCCCC(=O)OC[C@H]1O[C@H](O[C@H]2O[C@H](CO)[C@H](O)[C@H](O)[C@H]2O)[C@@H](O)[C@@H](O)[C@@H]1O ; cells: TZM-b1 ; result: 48.35 µM
COCC(=O)NC(CCSC[C@H]1O[C@@H](n2ccc3c(N)ncnc32)[C@H](O)[C@@H]1O)C(=O)OC(C)C ; cells: PRK/E6SM ; result: >400 µg/mL
Nc1ccnc(OC[C@H]2CC[C@@H](COCc3ccccc3)O2)n1 ; cells: CAKI-1 ; result: ≥250 µM
Cn1c(=O)cc(Sc2cccc(F)c2)c2ccccc21 ; cells: Huh-Luc-Neo ; result: >100 µM
Oc1[nH]c2ccc(Cl)cc2c1N=NC(=S)Nc1ccccc1 ; cells: hRD ; result: >25 µM
CCCN(Cc1ccccc1OCC(=O)O)C(=O)c1ccc(-c2ccc3c(c2)OCO3)cc1 ; cells: HEK 293 ; result: >20 µM
COC(=O)N[C@H](C(=O)N[C@H](CCC[C@@H](CO)N(CCC(C)C)S(=O)(=O)c1ccc(CO)cc1)C(F)(F)C(F)(F)F)C(c1ccccc1)c1ccccc1 ; method: microscopy ; cells: T lymphoid cells ; result: >10 µM
Cc1cc2c(O[C@H]3O[C@H](CO)[C@@H](O)[C@H]3O)ccc(O)c2c(=O)o1 ; method: MTT ; cells: HL-60 ; result: >40 µg/mL
O=c1c(-c2ccccc2)c(O)c2cc(S(=O)(=O)NCc3ccccc3)cnc2n1O ; cells: HeLa ; result: <100 µM
Nc1ncnc2c([C@@H]3O[C@H](CO)C[C@H]3O)[nH]nc12 ; cells: PRK/E6SM ; result: >400 µg/mL
O=c1[nH]c(=O)n([C@H]2O[C@@H](CO)[C@H](O)[C@H]2F)cc1C(F)(F)F ; cells: 2.2.15 ; result: >200 µM
Cc1cn([C@@H]2CC[C@H](COC(=O)CCCCCCCCCCC(=O)OC[C@H]3O[C@@H](n4cc(C)c(=O)[nH]c4=O)C[C@@H]3N=[N+]=[N-])O2)c(=O)[nH]c1=O ; cells: CBMC ; result: >1 µM
O=c1[nH]c(=O)n([C@H]2O[C@@H](CO)[C@H](O)[C@H]2F)cc1Cl ; cells: 2.2.15 ; result: >200 µM
CCOC(=O)CCCCCOc1cccc(CN(C(=O)c2ccc(-c3ccsc3)cc2)C(C)C)c1 ; cells: HEK 293 ; result: >20 µM
O=c1sc2nc3c(c(=S)n2/c1=C/c1ccc(Cl)cc1)C1=C(CCC/C1=C\c1ccncc1)C(c1ccncc1)S3 ; method: MTT ; cells: MCF-7 ; result: 33.9 µM